Measured values from several laboratories, pooled; numbers as filed in NIAID ChemDB.

Shared fields: growth or infection tests; agent: Mycobacterium tuberculosis

Lines come from different laboratories, so protocols vary. MIC bound comes from a single tested concentration. Two numbers with a dash give a range or band. An empty or dashed field is not shown. ECn: concentration that inhibits the pathogen or its effect by n%. Inhibition is in % at the dose shown (toxicity tests: loss of growth or viability). MIC50, MIC90 and the like: level of inhibition, or share of isolates inhibited.

SMILES | endpoint | conditions | read by | strain or isolate | dose | cells | changes | value
COC(=O)c1ccc(Oc2cc(C)cc(OC)c2OC)cc1 | MIC |  |  | H37Rv |  |  |  | 125–500 µg/mL
Cc1c(CN2CCSCC2)cc(-c2ccccc2)n1-c1ccccc1F | MIC |  |  | 103471 |  |  |  | 8 µg/mL
O=C(CCN1C(=O)/C(=C/c2ccc([N+](=O)[O-])cc2)SC1=S)NNC(=O)c1cccc2ccccc12 | MIC |  |  | H37Rv |  |  |  | 12.35 µM
Cc1cccc(OC(=O)c2ccc(N)cc2O)c1 | MIC |  |  | H37Rv |  |  |  | 0.0313 µg/mL
Cc1ccc(/C=C(\C(N)=S)c2nc3cccnc3n2C)c(C)c1 | MIC |  |  | 109 |  |  |  | 31.2 µg/mL
CC[C@H]1OC(=O)[C@H](C)[C@@H](OC2C[C@@](C)(O)C(O)[C@H](C)O2)[C@H](C)[C@@H](OC2OC(C)C[C@H](N(C)C)C2O)[C@](C)(OC2CC(N(C)C)C(O)C(C)O2)C[C@@H](C)C(=O)[C@H](C)[C@@H](O)[C@]1(C)O | MBC |  | resazurin | H37Rv |  |  |  | >128 µg/mL
Cc1c(CN2CCSCC2)cc(-c2ccccc2Cl)n1-c1ccccc1F | MIC |  |  | 103471 |  |  |  | 4 µg/mL
COc1cc(/C=C2\SC(=S)N(CCC(=O)NNC(=O)c3cccc4ccccc34)C2=O)cc(OC)c1OC | MIC |  |  | H37Rv |  |  |  | 5.67 µM
CCN1C(=O)CS/C1=N\NC(=O)Cc1csc2nc(-c3ccc(Br)cc3)cn12 | MIC |  |  | H37Rv |  |  |  | >6.25 µg/mL
O=C(CCC(F)(F)F)N1CCC(F)(c2ccnc(F)c2)CC1 | EC50 |  | fluorescence | H37Rv |  | THP-1 |  | <0.05 µM
O=[N+]([O-])c1ccc(C2=CC(c3cccc(Oc4ccccc4)c3)NC(=S)N2)cc1 | MIC |  | resazurin | H37Rv |  |  |  | 0.68 µg/mL
CC(=O)Oc1ccccc1Oc1ccccc1[N+](=O)[O-] | MIC |  |  | H37Rv |  |  |  | 15.6–62.5 µg/mL
C[CH2][Ge]([CH2]C)[O][Ge]([CH2]C)[CH2]C.C[CH2][Ge]([CH2]C)[O][Ge]([CH2]C)[CH2]C | MIC |  | BACTEC | H37Rv |  |  |  | 16 µg/mL
Fc1ccc(ON2N=C(c3ccc(Br)cc3)C(n3ccnc3)C2c2ccc(Br)cc2)cc1 | MIC |  |  | H37Rv |  |  |  | 4 µg/mL
COC(=O)c1cc(N)cn1C | MIC bound |  | resazurin | H37Rv |  |  |  | >6.25 µg/mL
c1ccc2c(c1)ncn1c3ccccc3nc21 | MIC99 |  | resazurin | H37Rv |  |  | INH resistant | 3.125 µg/mL
Cc1c(CN2CCN(C)CC2)cc(-c2ccccc2)n1-c1cccc2ccccc12 | MIC |  |  | 103471 |  |  |  | >16 µg/mL
Nc1ncnc2c1ncn2[C@@H]1O[C@H](COP(=O)(O)O)[C@@H](O)[C@H]1O | MIC bound |  | BACTEC | H37Rv |  |  |  | >12.5 µg/mL
C/C(=N\NC([S-])Nc1ccccc1)c1ccccn1.CC(=O)/C=C(/C)[O-].[O]=[V+2] | MIC |  | resazurin | H37Rv (ATCC 27294) |  |  |  | 1.56 µg/mL
NC1=NC(c2cccc(Oc3ccccc3)c2)C=C(c2ccc([N+](=O)[O-])cc2)N1 | MIC |  | resazurin | H37Rv |  |  |  | 48.93 µg/mL
CCCCc1nc2ccc(Br)cc2c2nc3ccccc3n12 | MIC99 |  | resazurin | H37Rv |  |  |  | 3.125 µg/mL
CC[C@H]1OC(=O)[C@H](C)[C@@H](O[C@H]2C[C@@](C)(OC)[C@@H](O)[C@H](C)O2)[C@H](C)[C@@H](O[C@@H]2O[C@H](C)C[C@H](N(C)C)[C@H]2O)[C@](C)(OC)C[C@@H](C)C(=O)[C@H](C)[C@@H](O)[C@]1(C)O | MIC90 |  |  |  |  |  |  | 1 µg/mL
O=C(CCC(F)(F)F)N1CCC(c2cc(C(F)(F)F)ccn2)CC1 | EC50 |  | fluorescence | H37Rv |  | THP-1 |  | 0.05–0.25 µM
NC(=O)c1csc(C(O)Cc2ccccc2)n1 | inhibition |  | BACTEC | H37Rv | 12.5 µg/mL |  |  | -4%
CC1COc2c(N3CCN(C)CC3)c(F)cc3c(=O)c(C(=O)O)cn1c23 | MIC | clinical isolate | resazurin | Clinical isolate unspecified |  |  |  | 0.3 µM
COc1cc2c(c3c1c(=O)c1ccc(F)cc1n3C)C=CC(C)(C)O2 | inhibition |  | BACTEC | H37Rv | 12.5 µg/mL |  |  | -33%
O=C(Oc1ccccc1)c1ccc(NC(=O)c2ccccc2C(=O)O)cc1O | MIC |  |  | H37Rv |  |  |  | 0.125 µg/mL
O=C(CCC(F)(F)F)N1CCC(F)(c2cccnc2)CC1 | EC50 |  | fluorescence | H37Rv |  | THP-1 |  | <0.05 µM
COc1cnc2ccc(=O)n(CCN3CCC(NCc4cc(Cl)c(Cl)cn4)CC3)c2c1 | MIC |  | resazurin | ATCC 27294 |  |  |  | ≤0.01 µM
CCCOC(=O)c1ccc(NC(=O)c2ccccc2C(=O)O)cc1O | MIC |  |  | H37Rv |  |  |  | >2 µg/mL
COC(=O)Cc1ccc(Oc2cc(C(OC(C)=O)OC(C)=O)cc(OC)c2OC(C)=O)cc1 | MIC |  |  | H37Rv |  |  |  | 500–1000 µg/mL
Cc1ccc(OC(=O)c2ccc(NC(=O)CCC(=O)O)cc2O)cc1 | MIC |  |  | H37Rv |  |  |  | 0.5 µg/mL
Cc1c(CN2CCSCC2)cc(-c2ccccc2F)n1-c1ccccc1 | MIC |  |  | 103471 |  |  |  | 4 µg/mL
CN(C)CCCN1c2ccccc2Sc2ccc(Cl)cc21 | MIC |  |  | 23296 |  |  |  | 10 µg/mL
CC(C)COC(=O)c1ccc(N)cc1O | MIC |  |  | H37Rv |  |  |  | 2.5 µg/mL
Cc1ccc(-n2cnc3c(N/N=C4\SCC(=O)N4c4ccccc4)ncnc32)cc1 | inhibition |  | BACTEC | H37Rv | 12.5 µg/mL |  |  | 22%
O=C(Cc1csc2nc(-c3ccc(Br)cc3)cn12)NNC(=S)Nc1ccc(Cl)cc1 | inhibition |  |  | H37Rv | 6.25 µg/mL |  |  | 14%
CC(=O)/C=C(/C)O | MIC |  | resazurin | H37Rv (ATCC 27294) |  |  |  | >50 µg/mL
C=C(C)[C@@H]1CC[C@]2(C(=O)O)CC[C@]3(C)[C@H](CC[C@@H]4[C@@]5(C)CC[C@H](O)C(C)(C)[C@@H]5CC[C@]43C)[C@@H]12 | MIC bound |  | BACTEC | H37Rv |  |  |  | >12.5 µg/mL
Fc1ccc(ON2N=C(c3ccccc3)C(n3ccnc3)C2c2ccccc2)cc1 | MIC |  |  | H37Rv |  |  |  | 8 µg/mL
NC(=O)c1cnccn1 | MIC99 |  | resazurin | H37Rv |  |  | INH resistant | 50.77 µg/mL
Cc1ccc(NC(=O)C(=O)CC(=O)c2c(C)n([O-])c3ccccc3[n+]2=O)cc1 | MIC |  | BACTEC | H37Rv |  |  |  | ≥12.5 µg/mL
COc1c(N2CCNC(C)C2)c(F)cc2c(=O)c(C(=O)O)cn(C3CC3)c12 | MIC90 |  |  |  |  |  |  | 0.25 µg/mL
O=c1cc2oc3cc(O)c(O)cc3c(-c3ccccc3O)c-2cc1O | inhibition |  | BACTEC | H37Rv | 12.5 µg/mL |  |  | -8%
CCCN1C(=O)CS/C1=N\NC(=O)Cc1csc2nc(-c3ccc(Br)cc3)cn12 | inhibition |  |  | H37Rv | 6.25 µg/mL |  |  | 18%
CCc1nc2ccc(Br)cc2c2nc3ccccc3n12 | MIC99 |  | resazurin | H37Rv |  |  |  | 12.5 µg/mL
Nc1nc(-c2ccccc2)c(N=Nc2ccccc2C(=O)O)s1 | MIC bound |  | BACTEC | H37Rv |  |  |  | >6.25 µg/mL
Cc1ccc(/C=C(\C(N)=S)c2nc3ncccc3n2C)c(C)c1 | MIC |  |  | H37Rv |  |  |  | 62.5 µg/mL
CC(=O)Nc1cc(C=O)ccc1Oc1cc(C=O)ccc1O | MIC |  |  | H37Rv |  |  |  | 250–1000 µg/mL
CC[C@H]1OC(=O)[C@H](C)C(=O)[C@H](C)[C@@H](O[C@@H]2O[C@H](C)C[C@H](N(C)C)[C@H]2O)[C@](C)(OC)C[C@@H](C)C(=O)[C@H](C)[C@H]2N(NCCCc3ccnc4ccccc34)C(=O)O[C@]12C | MIC |  |  | H37Rv |  |  |  | 20 µg/mL
O=C(CCN1C(=O)/C(=C/c2ccc3c(c2)OCO3)SC1=S)NNC(=O)c1cccnc1 | MIC |  |  | H37Rv |  |  |  | 54.81 µM
C/C(O)=C(\C=N\C(=S)Nc1cccc(C(F)(F)F)c1)C(=O)Nc1ccccc1C | inhibition |  | resazurin | H37Rv | 6.25 µg/mL |  |  | -9%
CCCc1nc2ccccc2c2nc3cc4ccccc4cc3n12 | MIC99 |  | resazurin | H37Rv |  |  |  | 6.25 µg/mL
NC1=NC(c2cccc(Oc3ccccc3)c2)C=C(c2ccc(F)cc2)N1 | MIC |  | resazurin | H37Rv |  |  |  | 1.49 µg/mL
CC1(CO)CCCC1NCCNC1CCCC1(C)CO | MIC bound |  | BACTEC | H37Rv |  |  |  | >12.5 µg/mL
CCOC(=O)c1ccc(NC(=O)CCC(=O)O)cc1O | MIC |  |  | H37Rv |  |  |  | >20 µg/mL
CO[C@H]1/C=C/O[C@@]2(C)Oc3c(C)c(O)c4c(O)c(c(/C=N/N5CCN(C)CC5)c(O)c4c3C2=O)NC(=O)/C(C)=C\C=C\[C@H](C)[C@H](O)[C@@H](C)[C@@H](O)[C@@H](C)[C@H](OC(C)=O)[C@@H]1C | MIC99 |  | resazurin | H37Rv |  |  | INH resistant | 0.24 µg/mL
CC1(C)S[C@@H]2[C@H](NC(=O)Cc3ccccc3)C(=O)N2[C@H]1C(=O)O | MIC |  | resazurin | H37Rv |  |  |  | 256 µg/mL
Nc1ccc(C(=O)OC2CCCCC2)c(O)c1 | MIC |  |  | H37Rv |  |  |  | >20 µg/mL
O=C(CCN1C(=O)/C(=C/c2ccc([N+](=O)[O-])cc2)SC1=S)NNC(=O)c1cccnc1 | MIC |  |  | H37Rv |  |  |  | 3.41 µM
Cc1c(CN2CCSCC2)cc(-c2ccccc2F)n1-c1cccc2ccccc12 | MIC |  |  | 103471 |  |  |  | 4 µg/mL
NNC(=O)c1ccncc1 | MIC |  |  | Isolate UT1998 (katG S315T mutation) |  |  |  | 0.75 µg/mL
O=C1C2=C(Nc3cc(Cl)ccc3N2)OC1c1ccccc1Cl | inhibition |  | BACTEC | H37Rv | 12.5 µg/mL |  |  | 20%
COC(=O)c1ccc(Oc2cc(C=O)cc(OC)c2OC(C)=O)cc1 | MIC |  |  | H37Rv |  |  |  | 250–500 µg/mL
O=C(CCC(F)(F)F)N1CCC(c2cncc(C(F)(F)F)n2)CC1 | EC50 |  | fluorescence | H37Rv |  | THP-1 |  | 0.05–0.25 µM
CCN(CC)CCN(C)c1ccc(CO)c2sc3cc(Cl)ccc3c(=O)c12 | MIC bound |  | BACTEC | H37Rv |  |  |  | ≤12.5 µg/mL
Cc1ccc(/C=C(\C(N)=S)c2nc3ncccc3[nH]2)c(C)c1 | MIC |  |  | 109 |  |  |  | 7.8 µg/mL
CCC(C)C(NC(=O)C(Cc1c[nH]c2ccccc12)NC(=O)OC(C)(C)C)C(=O)NN | inhibition |  | BACTEC | H37Rv | 12.5 µg/mL |  |  | 0%
C[C@@H](O)[C@H]1C(=O)N2C(C(=O)O)=C(SCCN=CN)C[C@H]12 | MIC |  | resazurin | H37Rv |  |  |  | 4 µg/mL
C/C=c1\[nH]c(=O)/c(=C/c2ccc(Cl)cc2)[nH]c1=O | MIC bound |  | BACTEC | H37Rv |  |  |  | >12.5 µg/mL
CC[C@@H](CO)NCCN[C@@H](CC)CO | MIC99 |  | resazurin | H37Rv |  |  | INH resistant | 7.64 µg/mL
CCCCN1C(=O)CS/C1=N\NC(=O)Cc1csc2nc(-c3ccc(Br)cc3)cn12 | MIC |  |  | H37Rv |  |  |  | >6.25 µg/mL
CCCCOC(=O)c1ccc(NC(=O)c2ccccc2C(=O)O)cc1O | MIC |  |  | H37Rv |  |  |  | 20 µg/mL
C=CC12c3c4ccc(OC)c3OC1C(OC)=CCC2C(NC)C4 | MIC bound |  | BACTEC | H37Rv |  |  |  | >12.5 µg/mL
CNC(=S)NNC(=O)Cc1csc2nc(-c3ccc(Br)cc3)cn12 | MIC |  |  | H37Rv |  |  |  | >6.25 µg/mL
C/C(=N\NC(N)=S)c1ccccn1 | MIC |  | resazurin | H37Rv (ATCC 27294) |  |  |  | 31.3 µg/mL
O=S(=O)(O)c1ccc2c(c1)C(C(Cl)(Cl)Cl)OC(C(Cl)(Cl)Cl)O2 | MIC bound |  | resazurin | H37Rv |  |  |  | >6.25 µg/mL
O=C(CCN1C(=O)/C(=C/c2ccc(OCc3ccccc3)cc2)SC1=S)NNC(=O)c1cccnc1 | MIC |  |  | H37Rv |  |  |  | 12.07 µM
COc1cccc(N=Nc2sc(N)nc2-c2ccccc2)c1 | inhibition |  | BACTEC | H37Rv | 6.25 µg/mL |  |  | 48%
Fc1ccc(C2=CC(c3cccc(Oc4ccccc4)c3)NC(=S)N2)cc1 | inhibition |  | resazurin | H37Rv | 6.25 µg/mL |  |  | 81%
C[C@@H](O)[C@H]1C(=O)N2C(C(=O)O)=C([C@H]3CCCO3)S[C@H]12 | MIC |  | resazurin | H37Rv |  |  |  | 4 µg/mL
Cc1nnc2n1N=C1CC(C)(C)CC(=O)C1S2 | MIC bound |  |  | H37Rv |  |  |  | >6.25 µg/mL
CCCCc1nc2ccccc2c2nc3cc4ccccc4cc3n12 | MIC99 |  | resazurin | H37Rv |  |  |  | 1.56 µg/mL

A second listing of 5 rows from above:

COc1cnc2ccc(=O)n(CCN3CCC(NCc4cc(Cl)c(Cl)cn4)CC3)c2c1 ; endpoint: MIC ; read by: resazurin ; strain or isolate: ATCC 27294 ; value: ≤0.01 µM
CCc1nc2ccc(Br)cc2c2nc3ccccc3n12 ; endpoint: MIC99 ; read by: resazurin ; strain or isolate: H37Rv ; value: 12.5 µg/mL
O=S(=O)(O)c1ccc2c(c1)C(C(Cl)(Cl)Cl)OC(C(Cl)(Cl)Cl)O2 ; endpoint: MIC bound ; read by: resazurin ; strain or isolate: H37Rv ; value: >6.25 µg/mL
CNC(=S)NNC(=O)Cc1csc2nc(-c3ccc(Br)cc3)cn12 ; endpoint: MIC ; strain or isolate: H37Rv ; value: >6.25 µg/mL
Cc1ccc(OC(=O)c2ccc(NC(=O)CCC(=O)O)cc2O)cc1 ; endpoint: MIC ; strain or isolate: H37Rv ; value: 0.5 µg/mL